Source: PMC7242879, “Exploring the Molecular Basis for Substrate Affinity and Structural Stability in Bacterial GH39 β-Xylosidases” (Frontiers in Bioengineering and Biotechnology, 2020)

Tested on: O=[N+]([O-])c1ccc(O[C@@H]2OC[C@@H](O)[C@H](O)[C@H]2O)cc1
Assay: purified protein
Conditions: McIlvaine buffer 50 mM pH 5.5, 40 °C, 0.1–25 mM substrate, 13.6 μM enzyme, 15 min

**Q.** Which Km does the source give for “XacXynB (Xanthomonas citri subsp. citri 306; D167G)” here?
**A.** Its Km is 5.79 ± 0.35 mM.

**Q.** What about the kcat of the same substance?
**A.** Its kcat is 4.68 s⁻¹.

**Q.** What about the kcat/Km of the same substance?
**A.** The kcat/Km was 808 M⁻¹ s⁻¹.

**Q.** For “XacXynB (Xanthomonas citri subsp. citri 306; K166D)”, which Km is on record?
**A.** Its Km is 4.06 ± 0.39 mM.

**Q.** What about the kcat of the same substance?
**A.** The kcat was 3.65 s⁻¹.

**Q.** And the kcat/Km?
**A.** The kcat/Km was 900 M⁻¹ s⁻¹.
